Values from PubChem BioAssay AID1224833 (University of Georgia, 2016).

Aim: 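Host factors restraining rotavirus as candidate antiviral genes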 (primary screen)
Cells: monkey MA104 kidney cells
Reagents: siRNA pool against human genes, 50 nM
Duration: 48 h knock-down before infection; read 24 h after infection
Conditions: infection with rotavirus strain RV3 two days after transfection; infectious dose for this stage not given
Read-out: 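z-score of rotavirus antigen signal per well, from a fluorescent immunoassay, relative to non-targeting control wells on the same plate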
Direction: z-score vs non-targeting control: higher = more rotavirus replication than with non-targeting control
Call rule: In these data the active calls have z-score vs non-targeting control at about -1 or lower, or at about 1 or higher
Calls: active = z-score beyond 1 either way; inactive = z-score within 1 of zero
The whole screen tested about 12,000 reagents; this is a part drawn at random. About 5,600 of all reagents (46%) count as active. 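Active calls cover z-scores past 1 in both directions, so they include lowered as well as raised rotavirus replication.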 Unmarked entries are inactive. No sequences are given here.

target gene	z-score vs non-targeting control
ZNF140	-0.488
ZNF770	-1.15 (active)
C4orf51	-0.863
ZNF48	0.135
ZNF302	0.834
ARRB2	2.71 (active)
ZRANB2	1.47 (active)
GATAD2A	-0.169
CHMP5	-0.0728
NAP1L1	0.0775
LRRN1	-1.63 (active)
KIAA1328	-0.0329
CXCR2	0.848
OR7G1	-1.61 (active)
ADAM32	-1.61 (active)
ADCYAP1R1	-1.18 (active)
CYP4F8	0.663
ABHD12	0.317
PSMC3IP	-1.68 (active)
DNAJC25-GNG10	-1.31 (active)
SMC4	-0.792
HDAC6	1.18 (active)
PPP1R9A	-0.423
TUFT1	0.709
CLPTM1L	0.0105
DENND4A	0.157
TERF2	-0.247
GPR149	-0.629
HOXA13	-1.21 (active)
PBRM1	2.56 (active)
NPFF	0.0839
NKX3-2	-0.885
SETD4	-0.563
HTR3B	-1.36 (active)
CHST11	1.63 (active)
SLC2A10	0.475
XKR4	1.84 (active)
POP7	1.36 (active)
IDNK	0.79
POLR3F	0.398
AURKAIP1	0.996
ATP10A	-2.02 (active)
PCDH20	1.1 (active)
PLAC8	-0.974
ANO7	0.464
CCDC82	-2.24 (active)
MTCL1	0.218
ZNF512	-1.6 (active)
TYMSOS	-0.601
PLPBP	-0.813
DCHS1	0.349
OBSL1	-1.03 (active)
CLOCK	-0.578
DNAAF4	-1.1 (active)
DTD2	0.0248
ZNF793	-1.16 (active)
UBL5	-1.08 (active)
LHX8	-0.587
OR4D9	-2.26 (active)
CCDC61	2.54 (active)
GUCY1B1	-1.48 (active)
SLC39A5	-0.395
S100A2	-0.311
MDFI	-1.74 (active)
TCP10L	-0.597
SIGIRR	-0.677
HYPK	-0.835
HOXD13	0.582
FCAMR	1.44 (active)
DXO	-2.03 (active)
APEX1	-0.645
EDRF1	-0.899
KLRF1	-0.868
EFCAB12	1.03 (active)
WDR20	-2.09 (active)
BCO2	-2.1 (active)
CHRDL2	-0.907
NMRK1	0.151
PSMB3	2.12 (active)
NUMB	0.357
ISX	-1.34 (active)
PYGM	0.577
OTOA	-0.555
MACROD2	-1.41 (active)
MCUR1	-1.28 (active)
BOLL	0.624
CPLX2	-0.46
BTG4	-1.01 (active)
H1-5	-1.57 (active)
DPT	0.474
EBAG9	1.07 (active)
CARD17P	-0.223
RANGAP1	-0.696
LPGAT1	0.631
PNMA3	-1.71 (active)
TPRN	0.613
DDX43	-2.44 (active)
STRA6	-0.632
SORL1	-0.854
MYF5	-1.54 (active)
ZNF101	-0.194
CPT2	-0.604
KLHL20	-0.811
VXN	-0.707
SIRAL2	-0.517
ZNF543	0.205
PRR13	-0.649
ITLN1	-0.759
DCX	-0.0469
COL25A1	1.51 (active)

5 entries from above, reformatted:
ZNF512: z-score vs non-targeting control = -1.6 (active)
TYMSOS: z-score vs non-targeting control = -0.601
PLPBP: z-score vs non-targeting control = -0.813
DCHS1: z-score vs non-targeting control = 0.349
OBSL1: z-score vs non-targeting control = -1.03 (active)
